Measured values published in article PMC12395586.

Legend:
[1] = biological target: T1, OxyR-His (Pseudomonas aeruginosa MPAO1) (UniProt Q9HTL4); assay: EMSA; conditions: 0-50 pmol OxyR, 0.1 pmol probe in 20 ul, poly(dI-dC), 10 mM HEPES pH 7.3, 20 mM KCl, 5% glycerol, 5 mM MgCl2, NP-40, poly(dI-dC), 25 C, 1 h, 6% gel, recombinant protein, residues 1-310, protein details: C-terminal His6, label: biotin 3' end, probe letters rebuilt from the primers and the genome
T1 sequence (looked up): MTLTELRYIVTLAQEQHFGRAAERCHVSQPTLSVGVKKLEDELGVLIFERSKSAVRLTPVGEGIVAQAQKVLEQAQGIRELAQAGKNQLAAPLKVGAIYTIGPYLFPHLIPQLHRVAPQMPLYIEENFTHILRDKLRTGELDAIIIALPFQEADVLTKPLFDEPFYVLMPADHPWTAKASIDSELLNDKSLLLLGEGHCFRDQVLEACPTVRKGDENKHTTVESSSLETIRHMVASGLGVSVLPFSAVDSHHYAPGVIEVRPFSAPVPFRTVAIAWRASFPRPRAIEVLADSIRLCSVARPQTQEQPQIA

[2] = biological target: T1, OxyR-His (Pseudomonas aeruginosa MPAO1); assay: competition with a labelled probe; conditions: unlabeled 0-30 pmol against 0.1 pmol labeled N1, 50 pmol OxyR; 10 mM HEPES pH 7.3, 20 mM KCl, 5% glycerol, 5 mM MgCl2, NP-40, poly(dI-dC); 20 ul; 25 C, 1 h; 6% gel; recombinant protein; residues 1-310; protein details: C-terminal His6; probe letters rebuilt from the primers and the genome

| Sequence | binding result [1] | binding result [2] |
| --- | --- | --- |
| GGCGATGGAACCGCTTGCAATCCATAATGCGTAATTAGGGAAAATTTTTACTAGGACGTCGATTTCTTCCGTGCTCACGCGAATCGCGCCTTTGCTGACGCTTTTCCATCTCTCGTAATCGCCCCCGTGAAGGCTGACCTTTTTGGGGCCGATTTTCTTGATTAATAGTCTTGCTCTATCGGCTGACGTGCTCATATAGAAATTTATTCCGGGGAAATAGTTGCCCTGACGTGGCTTTGGGGAAATAATTTCTCCAGGGTAATTATTTCTCTAGCTGCGTATGGCTAATGCCACGAATAGTGACGGAATGAGC (double strand) [xisF4 promoter probe (313 bp)] | binds | – |
| GGCGATGGAACCGCTTGCAATCCATAATGCGTAATTAGGGAAAATTTTTACTAGGACGTCGATTTCTTCCGTGCTCACGCGAATCGCGCCTTTGCTGACGCTTTTCCATCTCTCGTAATCGCCCCCGTGAAGGCTGACCTTTTTGGGGCCGATTTTCTTGATTAATAGTCTTGCTCTATCGGCTGACGTGCTCATATAGAAATTTATTCCGGGGAAATAGTTGCCCTGACGTGGCTTTGGGGAAATAATTTCTCCAGGGTAATTATTTCTCTAGCTGCGTATGGCTAATGCCACGAATAGTGACGGAATGAGC (double strand) [xisF4 promoter unlabeled competitor] | – | binds |

Tags and fusion partners may be left off the protein sequences shown.
